Earlier results, collected in paper PMC4728504, “Determination of FVIIa-sTF Inhibitors in Toxic Microcystis Cyanobacteria by LC-MS Technique” (Marine Drugs, 2015).

Biological target: thrombin (Homo sapiens, UniProt P00734)
Settings: cited from earlier work

In the case of oscillarin, the “thrombin inhibition, in words” value is given as “fVIIa and thrombin inhibitors”.
